The source of these data is PMC10150359 (Journal of Medicinal Chemistry, 2023).

Molecules are shown by their SMILES.

This experiment concerns the target soluble EBOV-GP protein (Zaire ebolavirus, UniProt Q05320, A503V/I544T/T262A/V310A). The following applies: 100:1 ligand-protein molar ratio, 298 K.

On to `CCOC(=O)C1CCN(CC(=O)N(c2ccccc2)c2ccccc2)CC1` [Compound 41, Ethyl 1-(2-(Diphenylamino)-2-oxoethyl)piperidine-4-carboxylate], for which the “STD-NMR recognition by EBOV-GP, competition” value is recorded as “weaker binder than 13”.

`O=C(CCNCCC1CCN(Cc2ccccc2)CC1)NN(c1ccccc1)c1ccccc1` [Compound 11, 3-((2-(1-Benzylpiperidin-4-yl)ethyl)amino)-N′,N′-diphenylpropanehydrazide]: the “STD-NMR recognition by EBOV-GP, competition” value is recorded as “STD effects for the three aromatic rings”.
